Sequences and labels used below:
B1: BD-922 (protein)
chain 1: QVQLQQSGPGLMKPSQTLSLTCAISGDSVSSNSPAWNWIRQSPSRGLEWLGRTYYRSRWYNDYAVSVKSRITINSDTSKNQFSLQLNSVTPEDTAVYYCARVSLWYGDLSGAFDIWGQGTMVTVSS
chain 2: EIVLTQSPGTLSLSPGERATLSCRASQSVSNNYLGWYQQKPGQAPRLLIYGASSRATGIPDRFSGSGSGTDFTLTISRLEPEDFAVYYCQQYGSSSITFGPGTKVDIR
B2: BD-916 (protein)
chain 1: EVQLVESGGGLVQPGRSLRLSCAASGFTFDDYAMHWVRQVPGKGLEWVSGISWNGDSIGYADSVKGRLTISRDNAKNTLFLQMNSLRAEDTAFYYCVKGLLGEWEFLFDYWGQGTLVTVSS
chain 2: QSVLTQPPSASGTPGQRVTISCSGSSSNIGNKITNWYQQLPGTAPKFLIYSNNQRPSGVPDRFSASKSGTSASLAISGLQSEDEADYYCAAWDDSLNALVFGGGTKLTVL
B3: BD-732 (protein)
chain 1: QVQLQEAGPGLVKPSGTLSLTCAVSGGSISGSHWWTWVRQPPGKGLEWIGEIFHSGSTTYNPSLKSRITMSVDKSKNQFSLKLNSVTAADTAVYYCARASAIIDYWGQGTLVTVSS
chain 2: DIQMTQSPSSLSASVGDRVTITCRASQGISNSLAWYQQKPGKAPKLLLYAASTLESGVPSRFSGSGSGTDYTLTISSLQPEDFATYYCQQYYSPPPRTFGQGTKVEIK
B4: BD-743 (protein)
chain 1: QVQLVQSGAEVKKPGASVKVSCKASGYTFASHNMHWVRQAAGQRLEWMGWMNAGNGNTKYLQKFQGRLTITRDTSATTAHMELSSLRSEDTAVYYCVRLGSEIEVGPDFWGQGTLVTVSS
chain 2: SYELTQPSSVSVSPGQTARITCSGDVLAKKYARWFQQKPGQAPVLVIYKDSERPSGIPERFSGSSSGTTVTLTISGAQVEDEADYYCYSAADNNLVFGGGTKLTVL
B5: BD-918 (protein)
chain 1: QVQLQESGPGLVKPSETLSLTCTVSGGSISDYYWSWIRQPAGKGLEWIGRIYASGSTSYNPSLKSRVTMSEDTSKNQFSLKLRSVAAADTAVYYCAREGITMVGGKIHNWFDPWGQGTLVTVSS
chain 2: QSVLTQPPSASGTPGQRVTISCSGSSSNIASNYVYWYQQLPGTAPKLLIYRNNQRPSGVPDRFSGSKSDTSASLAISGLRSEDEADYYCAAWDDSLSGPVFGGGTKLTVL
B6: BD55-302 (protein)
chain 1: EVQLVESGGALVHPGRSLRLSCTASGFTFEDYAMHWVRQAPGKGLEWVSGVSWNSGTIGYADSVKGRFIISRDNAKNSLYLQMLSLRVEDTAFYYCAKHGGLLDTSLDQYYFDYWGQGTLVTVSS
chain 2: not shown
B7: BD55-300 (protein)
chain 1: QLHLQESGPGLVKASETLSLTCTVSADSISSSRYYWGWIRQSPGKGLEWIGSIFYSGSTYYNPSLKSRVTISVDTSKNQFSLRLSSVTAADTALYYCARHLAGIDYWGQGTLVTVSS
chain 2: DIQMTQSPSFLSASVGDRVTITCRASQGISNSLAWYQQKPGKAPNLLLYAASTLESGVPSRFSGSGSGTDFTLTVSSLQPEDFATYYCQQYYDTLFTFGPGTKVDIK

Human monoclonal antibodies against the spike receptor-binding domain (heavy:light variable regions). IC50 against pseudoviruses bearing the spike of naturally observed variants; lower = stronger; >10 µg/ml means not reached at the top dose. No active / inactive call. The stated detection limit is 0.0005 µg/ml; values near or below 0.001 µg/ml lie at the floor of the assay.

The first assay has as its target SARS-CoV-2 Omicron BA.1 spike pseudovirus. The experiment in a line: pseudovirus neutralization IC50; higher = weaker neutralization. Here is the method:
(§1)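 Single-round VSV luciferase pseudovirus mixed with antibody dilutions for 1 h and put on Huh-7 cells for about a day; IC50 from the dose curve.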
Take B1: the “pseudovirus neutralization IC50” value is above 10 µg/mL.

For B2, the “pseudovirus neutralization IC50” value is 1.41 µg/mL.

For B3, the “pseudovirus neutralization IC50” value was above 10 µg/mL.

With B4, the “pseudovirus neutralization IC50” value was found to be 6.57 µg/mL.

B5: the “pseudovirus neutralization IC50” value is above 10 µg/mL.

With B6, the “pseudovirus neutralization IC50” value was 0.0612 µg/mL.

Turning to B7, the “pseudovirus neutralization IC50” value is above 10 µg/mL.

A further assay addresses SARS-CoV-2 Omicron BA.2 spike pseudovirus. The assay is described as above. The protocol:
as §1
Regarding B1, the “pseudovirus neutralization IC50” value is above 10 µg/mL.

B2: the “pseudovirus neutralization IC50” value is above 10 µg/mL.

Turning to B3, the “pseudovirus neutralization IC50” value was above 10 µg/mL.

For the molecule B4, the “pseudovirus neutralization IC50” value turned out to be 8.9 µg/mL.

As to B5, the “pseudovirus neutralization IC50” value was above 10 µg/mL.

With B6, the “pseudovirus neutralization IC50” value turned out to be 0.0623 µg/mL.

Turning to B7, the “pseudovirus neutralization IC50” value is above 10 µg/mL.

A further assay has as its target SARS-CoV-2 Omicron BA.2.75 spike pseudovirus. The description is as above. Here is the method: as §1
As to B1, the “pseudovirus neutralization IC50” value is above 10 µg/mL.

B2: the “pseudovirus neutralization IC50” value was above 10 µg/mL.

With B3, the “pseudovirus neutralization IC50” value was above 10 µg/mL.

With B4, the “pseudovirus neutralization IC50” value is 6.09 µg/mL.

B5: the “pseudovirus neutralization IC50” value is above 10 µg/mL.

For the molecule B6, the “pseudovirus neutralization IC50” value was 0.0425 µg/mL.

For the molecule B7, the “pseudovirus neutralization IC50” value is above 10 µg/mL.

The next assay concerns the target SARS-CoV-2 Omicron BA.5 spike pseudovirus. The assay is described as above. Here is the method:
as §1
For the molecule B1, the “pseudovirus neutralization IC50” value was above 10 µg/mL.

In the case of B2, the “pseudovirus neutralization IC50” value was above 10 µg/mL.

B3: the “pseudovirus neutralization IC50” value was above 10 µg/mL.

In the case of B4, the “pseudovirus neutralization IC50” value came out at 7.12 µg/mL.

Regarding B5, the “pseudovirus neutralization IC50” value is above 10 µg/mL.

For B6, the “pseudovirus neutralization IC50” value was above 10 µg/mL.

B7: the “pseudovirus neutralization IC50” value is above 10 µg/mL.

For another assay, the target named is SARS-CoV-2 Omicron BQ.1.1 spike pseudovirus. Described as above. Here is the method:
as §1
In the case of B1, the “pseudovirus neutralization IC50” value was above 10 µg/mL.

Consider B2, for which the “pseudovirus neutralization IC50” value was above 10 µg/mL.

For B3, the “pseudovirus neutralization IC50” value is above 10 µg/mL.

In the case of B4, the “pseudovirus neutralization IC50” value is above 10 µg/mL.

Regarding B5, the “pseudovirus neutralization IC50” value is above 10 µg/mL.

As to B6, the “pseudovirus neutralization IC50” value is above 10 µg/mL.

Turning to B7, the “pseudovirus neutralization IC50” value is above 10 µg/mL.

Another assay concerns the target SARS-CoV-2 Omicron XBB spike pseudovirus. The description is as above. The protocol: as §1
In the case of B1, the “pseudovirus neutralization IC50” value was above 10 µg/mL.

Take B2: the “pseudovirus neutralization IC50” value was above 10 µg/mL.

In the case of B3, the “pseudovirus neutralization IC50” value was above 10 µg/mL.

B4: the “pseudovirus neutralization IC50” value was above 10 µg/mL.

As to B5, the “pseudovirus neutralization IC50” value was above 10 µg/mL.

In the case of B7, the “pseudovirus neutralization IC50” value is above 10 µg/mL.

For another assay, the target named is SARS-CoV-2 early D614G spike pseudovirus. The assay is described as above. Here is the method:
as §1
Take B1: the “pseudovirus neutralization IC50” value was found to be 0.039 µg/mL.

As for B2, the “pseudovirus neutralization IC50” value worked out at 1.69 µg/mL.

In the case of B3, the “pseudovirus neutralization IC50” value was above 10 µg/mL.

Take B4: the “pseudovirus neutralization IC50” value is 0.954 µg/mL.

B5: the “pseudovirus neutralization IC50” value was 0.005 µg/mL.

For the molecule B6, the “pseudovirus neutralization IC50” value is 0.074 µg/mL.

B7: the “pseudovirus neutralization IC50” value is 0.005 µg/mL.
